PubChem BioAssay AID504761, Drosophila RNAi Screening Center, 2011
In all, the deposit lists about 22,000 reagents; shown is an unselected part of those with a known target gene and a result. Over the whole deposit, 116 (0.52%) were called active. 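Calls depend on retest data that are not deposited; infection was ranked per plate without normalising between plates; the unit of the infection score is not given.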 Raw values are not corrected between plates. A number with no mark means an inactive call. A plus sign joins genes that one reagent is predicted to hit. The record does not give: the amount of reagent, the time to read-out.

Screen: 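Genome-wide fly cell screen for genes dengue virus requires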 (primary screen)
System: D.Mel-2 cells from Drosophila
Reagents: long dsRNA against Drosophila genes
Treatment: infection with dengue virus type 2; dose and infection time not stated
Detection: 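Cells stained for dengue envelope protein and imaged; percent of infected cells per well on duplicate plates, ranked by infection, with stained nuclei counted for cell number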
Reading the numbers: infection score: higher = more virus-infected cells; cell count: higher = more cells in the well
Hit rule: 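Very low infection ranking in both replicate wells (chance probability at most 0.065), then a retest showing infection dropped 1.5-fold or more at p below 0.05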
Calls: active = confirmed: knock-down lowers infection; inactive = not picked or not confirmed

Gene | dsRNA | infection score, replicate 1 | infection score, replicate 2 | cell count, replicate 1 | cell count, replicate 2
PH4alphaMP (GeneID 43624) | DRSC17031 | – | 0.83 | 370 | 606
scyl (GeneID 39270) | DRSC11392 | 1.17 | 1.41 | 5715 | 5691
scyl (GeneID 39270) | DRSC27699 | 5.5 | 5.45 | 6203 | 5799
Smug (GeneID 42078) | DRSC15762 | 2.79 | 11.2 | 6813 | 6758
pico (GeneID 33003) | DRSC19430 | 1.26 | 5.63 | 5795 | 5701
Spn43Ab (GeneID 45040) | DRSC06781 | 6.06 | 13.3 | 6520 | 5819
Spn43Ab (GeneID 45040) | DRSC28317 | 10.1 | 20.3 | 3859 | 4765
Antdh (GeneID 32058) | DRSC20307 | 17.3 | 11.8 | 4527 | 6043
Antdh (GeneID 32058) | DRSC25689 | 4.42 | 4.41 | 6283 | 6186
Pi3K59F (GeneID 37733) | DRSC04640 | 6.19 | 4.61 | 6102 | 6080
Pi3K59F (GeneID 37733) | DRSC28890 | 10.4 | 13.7 | 3689 | 3784
CG1236 (GeneID 40708) | DRSC12203 | 1.33 | 4.95 | 6866 | 6713
APP-BP1 (GeneID 39244) | DRSC10920 | 1.65 | 2.67 | 5708 | 6057
CG6800 (GeneID 42562) | DRSC16119 | 4.56 | 1.04 | 7085 | 6526
Pka-C1 (GeneID 34284) | DRSC03399 | 22.6 | 9.96 | 6315 | 6343
Pka-C1 (GeneID 34284) | DRSC23314 | 1.96 | 6.87 | 6214 | 6521
Pka-C1 (GeneID 34284) | DRSC28268 | 15.7 | 12.6 | 4681 | 5975
CG6066 (GeneID 43267) | DRSC15959 | 11 | 6.51 | 5982 | 6696
CG6066 (GeneID 43267) | DRSC22228 | 2.08 | 5.47 | 6587 | 6910
CG6066 (GeneID 43267) | DRSC27936 | 33.6 | 15.7 | 5512 | 5526
RpS23 (GeneID 36576) | DRSC07169 | 27.6 | 30.9 | 4374 | 5204
RpS23 (GeneID 36576) | DRSC26313 | 8.84 | 11.8 | 4523 | 4999
Cyp313a3 (GeneID 41488) | DRSC16626 | 9.88 | 3.79 | 6601 | 6495
Dscam4 (GeneID 2769008) | DRSC08913 | 2.12 | 2.58 | 5697 | 5924
Dscam4 (GeneID 2769008) | DRSC10031 | 1.11 | 2.93 | 6116 | 6285
Dscam4 (GeneID 2769008) | DRSC10329 | 0.94 | 3.5 | 5763 | 5398
Dscam4 (GeneID 2769008) | DRSC10765 | 1.15 | 4.19 | 5715 | 4919
Dscam4 (GeneID 2769008) | DRSC27460 | 20.3 | 33 | 6340 | 6300
ver (GeneID 39432) | DRSC10125 | 0.3 | 0.7 | 5957 | 5831
ver (GeneID 39432) | DRSC28113 | 34.8 | 23.2 | 4419 | 3233
Pfdn5 (GeneID 42647) | DRSC16183 | 3.77 | 11 | 6337 | 6428
snoRNA:660 + Act57B | DRSC23472 | 4.44 | 14.2 | 5383 | 5229
CG32099 (GeneID 317852) | DRSC21352 | 0.99 | – | 5663 | 387
CG13872 (GeneID 37273) | DRSC06431 | 0.75 | 1.96 | 5628 | 5779
Snp (GeneID 37511) | DRSC04524 | 4.21 | 10.1 | 6682 | 6645
Snp (GeneID 37511) | DRSC21538 | 0.82 | 9.05 | 5591 | 6210
CG10417 (GeneID 35492) | DRSC04846 | 19.5 | 33.5 | 6232 | 3940
CG10417 (GeneID 35492) | DRSC27173 | 8.65 | 17.5 | 6867 | 3967
ksh (GeneID 50363) | DRSC19554 | 1.58 | 1.1 | 6060 | 5475
ksh (GeneID 50363) | DRSC28147 | 11.7 | 14.8 | 5954 | 6699
Eig71Ej (GeneID 39711) | DRSC11157 | 2.08 | 4.45 | 6050 | 6186
Eig71Ej (GeneID 39711) | DRSC28224 | 10.5 | 6.8 | 3380 | 2411
TwdlN (GeneID 43207) | DRSC25037 | 1.31 | 3.69 | 6575 | 6524
CG13405 (GeneID 38016) | DRSC08310 | 3.95 | 9.66 | 6151 | 6646
CG13405 (GeneID 38016) | DRSC27289 | 29.6 | 15.2 | 6441 | 3458
fbl (GeneID 46234) | DRSC29115 | 0.26 | – | 386 | 256
CG6421 (GeneID 46813) | DRSC07420 | 16.6 | 13.9 | 6477 | 7383
CG6421 (GeneID 46813) | DRSC29544 | 25.4 | 17 | 3950 | 6084
ppk31 (GeneID 318575) | DRSC13811 | 1.47 | 2.02 | 6202 | 5600
ppk31 (GeneID 318575) | DRSC25391 | 6.18 | 3.96 | 6209 | 6357
CG18538 (GeneID 37095) | DRSC06765 | 7.51 | 5.05 | 5794 | 6356
RapGAP1 (GeneID 34032) | DRSC02293 | 4.05 | 7.21 | 6228 | 6640
RapGAP1 (GeneID 34032) | DRSC02294 | 2.48 | 6.08 | 6412 | 6337
RapGAP1 (GeneID 34032) | DRSC03406 | 4.91 | 0.96 | 5988 | 6385
RapGAP1 (GeneID 34032) | DRSC28628 | 18.7 | 13.9 | 6563 | 6309
RapGAP1 (GeneID 34032) | DRSC29428 | 14.3 | 21.2 | 3092 | 3996
CG17364 (GeneID 39543) | DRSC10269 | 2.9 | 8.78 | 5798 | 6332
CG17364 (GeneID 39543) | DRSC10270 | 6.18 | 2.9 | 6355 | 6528
CG17364 (GeneID 39543) | DRSC22689 | 3.12 | 1.03 | 6817 | 6719
CG17364 (GeneID 39543) | DRSC29363 | 17.3 | 8.66 | 5943 | 5508

Targets above whose target name starts with R or r (7):
Gene | dsRNA | infection score, replicate 1 | infection score, replicate 2 | cell count, replicate 1 | cell count, replicate 2
RpS23 (GeneID 36576) | DRSC07169 | 27.6 | 30.9 | 4374 | 5204
RpS23 (GeneID 36576) | DRSC26313 | 8.84 | 11.8 | 4523 | 4999
RapGAP1 (GeneID 34032) | DRSC02293 | 4.05 | 7.21 | 6228 | 6640
RapGAP1 (GeneID 34032) | DRSC02294 | 2.48 | 6.08 | 6412 | 6337
RapGAP1 (GeneID 34032) | DRSC03406 | 4.91 | 0.96 | 5988 | 6385
RapGAP1 (GeneID 34032) | DRSC28628 | 18.7 | 13.9 | 6563 | 6309
RapGAP1 (GeneID 34032) | DRSC29428 | 14.3 | 21.2 | 3092 | 3996
